{"source": "paper PMC5441103", "about": "“Antiviral activity of phenanthrenes from the medicinal plant Bletilla striata against influenza A virus” (BMC Complementary and Alternative Medicine, 2017)", "key": {"[1]": {"tested_on": "influenza A/Sydney/5/97 (H3N2)"}, "[2]": {"target": "neuraminidase (NA) (Influenza A virus, UniProt Q80DL0)", "settings": "read-out: NA inhibitory activity IC50"}}}
{"substance": "2,2′–dyhydroxyl-4,4′,7,7′-9′,10′-dihydro-1,6′-di-phenanthrene [Compound 11]", "values": [{"measurement": "Post-treatment SI (selective index; CC50mean/IC50mean)", "setting": "[1]", "value": 3.4}, {"measurement": "Simultaneous treatment SI (selective index; CC50mean/IC50mean)", "setting": "[1]", "value": 3.1}, {"measurement": "IC50", "setting": "[2]", "value": "57.6 ± 5.9", "unit": "µM"}]}
